Here are results for 1 molecule from patent US20190184007A1, “AVOIDING NARCOLEPSY RISK IN INFLUENZA VACCINES” (priority 2013, published 2019).

For experiment [1], the target named is HLA DQA1*0102:DQB1*0602, P01920. Kind of experiment: REVEAL class II binding assay (cell-free).
For experiment [2], the target named is HLA DQA1*0101:DQB1*0501. Kind of experiment: REVEAL class II binding assay (cell-free).

Take LILYDKEERRRRWRQ (modifications not checked) [Peptide #9 (Mutant of #3)]: in experiment [1], the REVEAL 24 hours (% of positive control signal) is 17.3 and the Stability index worked out at 14.7. In experiment [2], this molecule registered an REVEAL 24 hours (% of positive control signal) of 6.4 and a Stability index of 2.9.
